experiment: general procedure: Fmoc solid-phase peptide synthesis; Rink-amide MBHA resin, 0.54 mmole/g; HATU / 4-methylmorpholine; conditions: whole synthesis, analytical ultra-high performance liquid chromatography and LC/MS

| Substance | final HPLC purity [%] |
| --- | --- |
| H-Aib-HGTFTSDLS-αK-LLE-K(-OEG-OEG-γGlu-C(O)-(CH2)18-COOH)-KAA-Iva-EFVEWLIEGGPSSGAPPPS-NH2 | 97.95 |
| H-Aib-HGTFTSDLSI-αL-LE-K(-OEG-OEG-γGlu-C(O)-(CH2)18-COOH)-KAA-Ac4c-EFVEWLLAGGPSSGAPPPS-NH2 | 95.39 |
| H-Aib-HGTFTSDLSI-αL-LE-K(-OEG-OEG-γGlu-C(O)-(CH2)18-COOH)-KAA-Iva-EFVEWLLAGGPSSGAPPPS-NH2 | 99.09 |
| H-Aib-HGTFTSDLSI-αL-LE-K(-OEG-OEG-γGlu-C(O)-(CH2)18-COOH)-KAAQEFVEWLLA-e-GPSSGAPPPS-NH2 | 95.29 |
| H-Aib-HGTFTSDLSI-αL-LE-K(-OEG-OEG-γGlu-C(O)-(CH2)18-COOH)-KAAQEFVEWLLAGGPSSGAPPPS-NH2 | 94.97 |
| H-Aib-HGTFTSDYS-αK-ILE-K(-OEG-OEG-γGlu-C(O)-(CH2)18-COOH)-KAAQEFVEWLLAGGPSSGAPPPS-NH2 | 96.89 |
| H-Aib-HGTFTSDYS-αK-ILE-K(-OEG-OEG-γGlu-C(O)-(CH2)18-COOH)-QAA-Iva-EFVEWLLAGGPSSGAPPPS-NH2 | 93.33 |
| H-Aib-HGTFTSDYS-αK-LLE-K(-OEG-OEG-γGlu-C(O)-(CH2)18-COOH)-KAA-Iva-EFVEWLIEGGPSSGAPPPS-NH2 | 87.55 |
| H-Aib-HGTFTSDYS-αK-LLE-K(-OEG-OEG-γGlu-C(O)-(CH2)18-COOH)-KAA-αS-EFVEWLIEGGPSSGAPPPS-NH2 | 99.27 |
| H-Aib-HGTFTSDYS-αK-LLE-K(-OEG-OEG-γGlu-C(O)-(CH2)18-COOH)-KAAQEFVEWLLAGGPSSGAPPPS-NH2 | 93.14 |
| H-Aib-HGTFTSDYS-αK-LLE-K(-OEG-OEG-γGlu-C(O)-(CH2)18-COOH)-QAA-Iva-EFVEWLLAGGPSSGAPPPS-NH2 | 99.50 |
| H-Aib-HGTFTSDYS-αK-YLE-K(-OEG-OEG-γGlu-C(O)-(CH2)18-COOH)-KAAQEFVEWLIEGGPSSGAPPPS-NH2 | 95.98 |
| H-Aib-HGTFTSDYS-αK-YLE-K(-OEG-OEG-γGlu-C(O)-(CH2)18-COOH)-KAAQEFVEWLLAGGPSSGAPPPS-NH2 | 97.18 |
| H-Aib-HGTFTSDYS-αK-YLE-K(-OEG-OEG-γGlu-C(O)-(CH2)18-COOH)-KAQQEFVEWLLAGGPSSGAPPPS-NH2 | 94.25 |
| H-Aib-HGTFTSDYSI-αL-LE-K(-OEG-OEG-γGlu-C(O)-(CH2)18-COOH)-KAA-Iva-EFVEWLLAGGPSSGAPPPS-NH2 | 99.02 |
| H-Aib-HGTFTSDYSI-αL-LE-K(-OEG-OEG-γGlu-C(O)-(CH2)18-COOH)-KAAQEFVEWLLA-e-GPSSGAPPPS-NH2 | 86.75 |
| H-Aib-HGTFTSDYSI-αL-LE-K(-OEG-OEG-γGlu-C(O)-(CH2)18-COOH)-KAAQEFVEWLLAGGPSSGAPPPS-NH2 | 95.58 |
| H-Aib-QGTFTSDYSI-αL-LE-K(-OEG-OEG-γGlu-C(O)-(CH2)18-COOH)-KAA-Aib-EFVEWLLAGGPSSGAPPPS-NH2 | 93.26 |
| Y-Aib-QGTFTSDYS-αK-ILE-K(-OEG-OEG-γGlu-C(O)-(CH2)18-COOH)-KAA-Iva-EFVEWLLAGGPSSGAPPPS-NH2 | 86.65 |
| Y-Aib-QGTFTSDYS-αK-LLE-K(-OEG-OEG-γGlu-C(O)-(CH2)18-COOH)-KAA-Iva-EFVEWLLAGGPSSGAPPPS-NH2 | 93.21 |

— patent publication EP4745153A1 (Jiangsu Hengrui Pharmaceuticals Co., Ltd., priority 2023, dated 2025)
